The target of the assay is Protease (Human immunodeficiency virus 1, UniProt Q9YQ12). As to the kind of experiment: Inhibition of HIV-1 NL4-3 wild type protease expressed in Escherichia coli preincubated for 20 mins by FRET analysis.

The structures appear in SMILES notation.

Take `Cc1cccc(C)c1OCC(=O)N[C@@H](Cc1ccccc1)[C@@H](O)C[C@H](Cc1ccccc1)NC(=O)[C@H](C(C)C)N1CCCNC1=O` [LOPINAVIR]: the IC50 (in general, the point on the concentration scale where inhibition reaches its midpoint) came to 2.5 nM.

(Values after ChEMBL document CHEMBL3091441, “Ligand modifications to reduce the relative resistance of multi-drug resistant HIV-1 protease” (Bioorg Med Chem, 2013).)
